Source: PubChem BioAssay AID1259414 (Drosophila RNAi Screening Center, 2018)
The screen tested about 24,000 reagents; this is a random part of those with a known target gene and a result. In the full data, about 1,210 (5%) were called active. 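Inactive calls also include excluded dsRNAs with several or no targets, genes unexpressed in JW18, and well A1, regardless of score.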 Entries without a mark were called inactive. Names joined by + are all predicted targets of the reagent.

- Aim: 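Fly genes that alter Wolbachia amount inside host cells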 (primary screen)
- Cells: Drosophila JW18 cells infected with Wolbachia
- Reagents: long dsRNA against Drosophila genes, 0.25 µg dsRNA per well of a 384-well plate
- Timing: 5 days
- Treatment: cells persistently infected with Wolbachia before knock-down; no added drug
- Measurement: 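Automated imaging of bacterial rRNA staining divided by host cell count, reported as plate-normalised robust z-score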
- Scale: Wolbachia per cell robust z: higher = more Wolbachia per host cell than the plate typical
- Hit rule: 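Hit when robust z is 1.5 or more, or -1.5 or less, in at least two of three replicates; excludes dsRNAs with several or no targets, genes not expressed in JW18 and well A1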

gene knocked down	DRSC id	Wolbachia per cell robust z, rep 1	Wolbachia per cell robust z, rep 2	Wolbachia per cell robust z, rep 3
cue	DRSC08248	0.797	1.44	0.884
CG10628	DRSC02080	-4.43	-0.00426	0.416
CG13358 + Sec22	DRSC18538	-0.106	-0.696	-0.771
CG46281 + CG46280	DRSC14505	0.551	0.381	0.527
Ugt35A1	DRSC16892	0.527	0.956	-0.781
Ugt35A1	DRSC25438	0.528	0.686	0.352
CG32280	DRSC08024	0.989	0.443	-0.143
CG30373	DRSC05081	0.263	0.396	-0.676
CG30373	DRSC29668	0.0247	0.0502	0.891
Top3beta	DRSC18724	-0.0151	-1.85	0.209
CG12502	DRSC23247	-2.8	1.69	1.02
Krn	DRSC11202	1.21	0.823	0.828
CG31231	DRSC13308	-0.852	-0.821	-0.119
CG31231	DRSC28440	-0.0975	-0.242	-0.723
insb	DRSC06995	-3.4	-0.967	-1.02
insb	DRSC24404	0.291	-1.28	-2.62
bol	DRSC08964	-1.13	1.29	0.507
bol	DRSC10444	-2.34 (active)	0.273	-1.54
bol	DRSC11329	-0.522	-5.99	-0.67
bol	DRSC26869	-0.676	-1.08	-1.33
CG7255	DRSC10790	-0.262	-0.699	0.34
rtv + Lint-1	DRSC19541	-1.43	0.594	-0.498
Tango4	DRSC19786	1.53 (active)	2.06	1.26
Tango4	DRSC23475	0.877 (active)	1.95	3.06
Scsalpha2	DRSC16003	0.072	0.542	0.466
CG8785	DRSC07266	0.395	-0.145	0.591

Next part (7 carried over from the part before).
gene knocked down	DRSC id	Wolbachia per cell robust z, rep 1	Wolbachia per cell robust z, rep 2	Wolbachia per cell robust z, rep 3
bol	DRSC26869	-0.676	-1.08	-1.33
CG7255	DRSC10790	-0.262	-0.699	0.34
rtv + Lint-1	DRSC19541	-1.43	0.594	-0.498
Tango4	DRSC19786	1.53 (active)	2.06	1.26
Tango4	DRSC23475	0.877 (active)	1.95	3.06
Scsalpha2	DRSC16003	0.072	0.542	0.466
CG8785	DRSC07266	0.395	-0.145	0.591
mRpS6	DRSC08470	-3.1	0.205	-1.41
mRpS6	DRSC29280	-0.955	-1.68	-1.02
GNBP-like3	DRSC06385	-4.65	-0.871	-1.04
CG33301	DRSC02778	0.868	0.366	-0.684
CG33301	DRSC25325	0.769	1.23	0.772
HmgD	DRSC04619	-0.476 (active)	-8.58	-2.19
HmgD	DRSC26171	-2.57	-1.5	-0.949
mAChR-A	DRSC04702	1.26	0.217	0.396
mAChR-A	DRSC28262	-0.512	0.159	1.13
CG12926	DRSC06239	-0.0919	-6.53	0.00529
CG12926	DRSC21930	-2.31 (active)	-1.76	-0.571
CG32237	DRSC08312	-0.0761	-0.45	0.615
CG32237	DRSC08315	-0.494	-0.0252	-0.203
CG32237	DRSC29288	-0.499	0.787	-0.326
CG14573	DRSC11734	-0.344	0.0644	0.338
CG14573	DRSC29094	-0.44	1.55	0.13
Gdh	DRSC16679	-1.89 (active)	-0.724	-6.77
Gdh	DRSC28603	0.38	0.723	0.822
CG14174	DRSC10175	0.0312	-0.365	-4.91
dgt6	DRSC14424	-0.00679	0.596	-0.842
caz	DRSC23280	0.546	-0.487	1.2
caz	DRSC29957	0.195	-0.596	0.44
Ptp69D	DRSC11258	0.388	-0.199	-1.28
Etl1	DRSC02911	-1.73	-1.3	-0.499
CG15465	DRSC18048	-0.414	0.132	0.891
CG15465	DRSC26250	1.07	0.951	1.21
CG14989	DRSC08448	0.564	-0.843	-0.969
CG14989	DRSC25585	1.16	-0.482	-0.559
Smg6	DRSC16029	-0.475	-0.571	0.307
Smg6	DRSC27703	-0.155	0.225	-2.84
CG42587	DRSC41374	-0.114	-0.875	-0.421
CG14777	DRSC18563	0.969	0.0659	0.703
Adi1	DRSC10945	0.0958	0.867	-0.297
Adi1	DRSC21485	0.613	0.568	1.23
Gr36b	DRSC21637	0.134	-0.37	-0.849
Gr36b	DRSC29818	0.893	1.37	-0.0416
Gr36b	DRSC39083	0.45	-0.061	1.9
snf	DRSC18835	1.07	0.667	0.773
snf	DRSC27854	-1.48	-0.793	0.396
snf	DRSC38949	1.33 (active)	1.87	1.51
CG5762	DRSC15869	-0.851	-0.196	-0.458
CG6126	DRSC15971	0.833	-3.26	0.8
